Anti-infective test results gathered from many reports (values: NIAID ChemDB through PubChem).

Common to all: whole-cell or culture tests; agent: HIV-1; read by: cytopathic effect / MTT; measure: EC50

ECn is the concentration giving n% inhibition of infection, replication or growth. An empty or dashed field is not shown. Two numbers with a dash give a range or band. Neighbouring rows are from separate reports.

structure,cells,changes,conditions,strain,value
NC(=O)c1cccn1S(=O)(=O)c1cc(Cl)ccc1[N+](=O)[O-],MT-4,-,-,IIIB,27 µM
CC(C)CN(C[C@@H](O)[C@H](Cc1ccccc1)NC(=O)O[C@H]1CO[C@H]2OCC[C@H]21)S(=O)(=O)c1ccc2nc(CO)[nH]c2c1,MT-4,-,-,LAI WT,1.995 µM
Cc1ncn(Nc2cccc(Cl)c2)c1-c1cccc(Br)c1,MT-4,-,-,NL4-3,1.3 µM
CC(C)CN(C[C@@H](O)[C@H](Cc1ccccc1)NC(=O)O[C@H]1CO[C@H]2OCC[C@H]21)S(=O)(=O)c1ccc2nc(N)n(C)c2c1,MT-4,-,-,LAI WT,0.251 µM
CC(C)CN(C[C@@H](O)[C@H](Cc1ccccc1)NC(=O)O[C@H]1CO[C@H]2OCC[C@H]21)S(=O)(=O)c1ccc2c(c1)/C(=C/c1ccc(-c3ccccn3)cc1)C(=O)N2,MT-4,-,-,LAI,0.025 µM
CCc1c(Cc2cc(C)cc(C)c2)n(COC/C=C/c2ccccc2)c(=O)[nH]c1=O,MT-4,-,-,IIIB,0.003 µM
COC(=O)Nc1nc2ccc(S(=O)(=O)N(CC(C)C)C[C@@H](O)[C@H](Cc3ccccc3)NC(=O)COc3c(C)cc(CN)cc3C)cc2[nH]1,MT-4,-,-,LAI WT,0.1 µM
CC(=O)OC[C@H]1O[C@@H](n2c3c(c(-c4ccc(Cl)cc4)c(C#N)c2=S)Cc2ccccc2-3)[C@H](OC(C)=O)[C@@H](OC(C)=O)[C@H]1OC(C)=O,MT-4,-,-,-,5.56 µM
Cc1ncn(Nc2ccccc2)c1-c1ccccc1,MT-4,RT-K103N Y181C,-,SO561945 (RT K103N Y181C),>52.18 µM
CC(C)CN(C[C@@H](O)[C@H](Cc1ccccc1)NC(=O)O[C@H]1CO[C@H]2OCC[C@H]21)S(=O)(=O)c1ccc2c(c1)/C(=C/c1cc3ccccc3[nH]1)C(=O)N2,MT-4,-,-,LAI,0.055 µM
COC(=O)Nc1nc2ccc(S(=O)(=O)N(CC(C)C)C[C@@H](O)[C@H](Cc3ccccc3)NC(=O)COc3c(C)cc(N(C)C)cc3C)cc2[nH]1,MT-4,-,-,LAI WT,0.032 µM
CCCCOC(=O)c1cccn1S(=O)(=O)c1cc(Cl)ccc1N,MT-4,-,-,IIIB,>200 µM
Cc1ncn(Nc2cccc(Cl)c2)c1-c1cccc(C#N)c1,MT-4,-,-,NL4-3,8.91 µM
Cc1csc(-c2ccc(N3C(=O)C=CC4C3c3ccccc3N4C)cc2)n1,MT-4,-,-,LAI,>32 µM
CCOCn1c(Cc2ccccc2)c(C(C)C)c(=O)[nH]c1=O,MT-4,RT-Y181C,-,NNRTI-resistant (RT Y181C) N119,44 µM
CCC(C)[C@@H](C(=O)N[C@@H](Cc1ccccc1)[C@H](O)CN(CC(C)C)S(=O)(=O)c1ccc(/C=N/O)cc1)N1CCN(Cc2cnccc2C)C1=O,MT-4,-,50% human serum,-,0.042 µM
CC(=O)OCC1=C[C@@H]2C(=O)[C@]3(C=C(C)[C@H](OC(C)=O)[C@@]3(O)[C@@H]1OC(C)=O)[C@H](C)C[C@@H]1[C@H]2C1(C)C,MT-4,-,-,A018A,0.65 µM
Cn1c2ccccc2c(=O)c2c(O)cccc21,MOLT-4,-,-,IIIB,>15 µg/mL
Cc1[nH]c(=S)n(Nc2ccccc2)c1-c1ccccc1,MT-4,-,-,NL4-3,>191 µM
CCc1c(Cc2cc(C)cc(C)c2)n(COCC2CC=CCC2)c(=O)[nH]c1=O,MT-4,RT-Y181C,-,NNRTI-resistant (RT Y181C) N119,>100 µM
CC(C)CN(C[C@@H](O)[C@H](Cc1ccccc1)NC(=O)OCc1cncs1)S(=O)(=O)c1ccc2nc(N)[nH]c2c1,MT-4,-,-,LAI WT,1.995 µM
CCC(C)[C@@H](C(=O)N[C@@H](Cc1ccccc1)[C@H](O)CN(CC(C)C)S(=O)(=O)c1ccc(/C=N/O)cc1)N1CC(=O)N(Cc2cccnc2)C1=O,MT-4,PR-L10F V32I M46I I47V Q68E I84V,-,A17 (LPV-resistant),0.001 µM
O=S(=O)(c1cccc2cnccc12)N1CCNCC1,CEM,-,-,IIIB,>10.2 µg/mL
CN1c2ccccc2C2C1C=C(C#N)C(=O)N2c1ccc(N)cc1,MT-4,-,-,LAI,>32 µM
Cc1ncn(Nc2ccc(F)cc2)c1-c1ccccc1,MT-4,-,-,IIIB,>30.82 µM
CN1c2ccccc2C2C1C=CC(=O)N2c1ccc(C(N)=O)cc1,MT-4,-,-,LAI,1–32 µM
CC(C)CN(C[C@@H](O)[C@H](Cc1ccccc1)NC(=O)[C@@H](N1CCN(Cc2cccnc2)C1=O)C(C)(C)C)S(=O)(=O)c1ccc(/C=N/O)cc1,MT-4,-,-,-,0.001 µM
CN1c2ccccc2C2C1C=CC(=O)N2c1ccc(-c2nc(-c3ccc(C#N)cc3)cs2)cc1,MT-4,-,-,LAI,>32 µM
CC(C)CN(C[C@@H](O)[C@H](Cc1ccccc1)NC(=O)O[C@H]1CO[C@H]2OCC[C@H]21)S(=O)(=O)c1ccc2c(c1)/C(=C/c1ccc(N(C)C)cc1)C(=O)N2,MT-4,-,-,LAI,0.04 µM
Cc1[nH]c(=S)n(Nc2cccc(F)c2)c1-c1ccccc1,MT-4,-,-,IIIB,>108 µM
O=C(Oc1ccccc1)c1cccn1S(=O)(=O)c1cc(Cl)ccc1[N+](=O)[O-],MT-4,-,-,IIIB,>15.5 µM
CCC(C)[C@@H](C(=O)N[C@@H](Cc1ccccc1)[C@H](O)CN(CC(C)C)S(=O)(=O)c1ccc(/C=N/O)cc1)N1CCN(Cc2c(C)ccnc2C)C1=O,MT-4,-,50% human serum,-,0.013 µM
CC(=O)OCc1ccc(/C=C2\C(=O)Nc3ccc(S(=O)(=O)N(CC(C)C)C[C@@H](O)[C@H](Cc4ccccc4)NC(=O)O[C@H]4CO[C@H]5OCC[C@H]54)cc32)o1,MT-4,-,-,LAI,0.056 µM
CCCc1c(Cc2cc(C)cc(C)c2)n(COCC2CC=CCC2)c(=O)[nH]c1=O,MT-4,RT-K103N Y181C,-,NNRTI-resistant (RT K103N Y181C) A17,>100 µM
COc1ccc(S(=O)(=O)N(CC(C)C)C[C@@H](O)[C@H](Cc2ccccc2)NC(=O)[C@H](C(C)C)N2CC(=O)N(Cc3ccccc3)C2=O)cc1,MT-4,-,-,-,0.005 µM
Cc1cc(OCC(=O)N[C@@H](Cc2ccccc2)[C@H](O)CN(CC(C)C)S(=O)(=O)c2ccc3nc[nH]c3c2)no1,MT-4,-,-,LAI WT,0.501 µM
CN(Cc1ccccc1)C(=O)c1cccn1S(=O)(=O)c1cc(Cl)ccc1[N+](=O)[O-],MT-4,-,-,IIIB,>17 µM
Cc1cc(C)c(-c2c3nc(c(-c4c(C)cc(C)cc4C)c4ccc([nH]4)c(-c4c(C)cc(C)cc4C)c4nc(c(-c5c(C)cc(C)cc5C)c5ccc2[nH]5)C=C4)C=C3)c(C)c1,MT-4,-,-,IIIB,1 µg/mL
CC(C)CN(C[C@@H](O)[C@H](Cc1ccccc1)NC(=O)O[C@H]1CCOC1)S(=O)(=O)c1ccc2ncn(C)c2c1,MT-4,-,-,LAI WT,0.02 µM
CCCc1c(Cc2ccccc2)n(COC/C(C)=C/c2ccccc2)c(=O)[nH]c1=O,MT-4,-,-,IIIB,0.04 µM
Cc1cccc(C)c1OCC(=O)N[C@@H](Cc1ccccc1)[C@H](O)CN(CC(C)C)S(=O)(=O)c1ccc2nc(N)n(C)c2c1,MT-4,-,-,LAI WT,0.02 µM
NS(=O)(=O)c1ccc(-c2c3nc(c(-c4ccc(S(N)(=O)=O)cc4)c4ccc([nH]4)c(-c4ccc(S(N)(=O)=O)cc4)c4nc(c(-c5ccc(S(N)(=O)=O)cc5)c5ccc2[nH]5)C=C4)C=C3)cc1,MT-4,-,-,IIIB,18 µg/mL
CC(C)CN(C[C@@H](O)[C@H](Cc1ccccc1)NC(=O)OCc1cncs1)S(=O)(=O)c1ccc2ncn(CC(C)C)c2c1,MT-4,-,-,LAI WT,0.04 µM
CCCc1c(Cc2ccccc2)n(COC/C=C/c2ccccc2)c(=O)[nH]c1=O,MT-4,RT-Y181C,-,NNRTI-resistant (RT Y181C) N119,>100 µM
COc1cc(/C=C2\C(=O)Nc3ccc(S(=O)(=O)N(CC(C)C)C[C@@H](O)[C@H](Cc4ccccc4)NC(=O)O[C@H]4CO[C@H]5OCC[C@H]54)cc32)ccc1O,MT-4,-,-,LAI,0.269 µM

A second listing of 7 rows from above:

structure	cells	changes	conditions	strain	value
CN1c2ccccc2C2C1C=C(C#N)C(=O)N2c1ccc(N)cc1	MT-4	-	-	LAI	>32 µM
Cc1ncn(Nc2cccc(Cl)c2)c1-c1cccc(C#N)c1	MT-4	-	-	NL4-3	8.91 µM
O=C(Oc1ccccc1)c1cccn1S(=O)(=O)c1cc(Cl)ccc1[N+](=O)[O-]	MT-4	-	-	IIIB	>15.5 µM
CC(C)CN(C[C@@H](O)[C@H](Cc1ccccc1)NC(=O)OCc1cncs1)S(=O)(=O)c1ccc2ncn(CC(C)C)c2c1	MT-4	-	-	LAI WT	0.04 µM
CC(=O)OCC1=C[C@@H]2C(=O)[C@]3(C=C(C)[C@H](OC(C)=O)[C@@]3(O)[C@@H]1OC(C)=O)[C@H](C)C[C@@H]1[C@H]2C1(C)C	MT-4	-	-	A018A	0.65 µM
CN(Cc1ccccc1)C(=O)c1cccn1S(=O)(=O)c1cc(Cl)ccc1[N+](=O)[O-]	MT-4	-	-	IIIB	>17 µM
NS(=O)(=O)c1ccc(-c2c3nc(c(-c4ccc(S(N)(=O)=O)cc4)c4ccc([nH]4)c(-c4ccc(S(N)(=O)=O)cc4)c4nc(c(-c5ccc(S(N)(=O)=O)cc5)c5ccc2[nH]5)C=C4)C=C3)cc1	MT-4	-	-	IIIB	18 µg/mL